Test results reported in patent US8501450B2, “Hepatitis C virus variants” (priority 2005, dated 2013).

Columns and labels:
[1] = tested on: HCV replicon, V170A variant; assay: Replicon Assay (Table 5); type: cell-based, Hepatitis C virus; conditions: apparently fold change vs wild-type, SD in next cell
[2] = tested on: HCV replicon, R109K variant; assay: Replicon Assay (Table 5); conditions: apparently fold change vs wild-type, SD in next cell
mutant HCV protease V36L = mutant HCV protease V36L (Hepatitis C virus genotype 1a, UniProt P27958, V1062L); conditions: apparently fold change vs wild-type
[3] = tested on: HCV replicon, T54A variant; assay: Replicon Assay (Table 5); conditions: apparently fold change vs wild-type, SD in next cell

**Q.** `CCC[C@H](NC(=O)[C@@H]1[C@H]2CCC[C@H]2CN1C(=O)[C@@H](NC(=O)[C@@H](NC(=O)c1cnccn1)C1CCCCC1)C(C)(C)C)C(=O)C(=O)NC1CC1` [VX-950] was tested. Which “Resistance, Replicon Assay” value [1] did it give?
**A.** 2.6

**Q.** What about the “Resistance, Replicon Assay” value [2] of the same compound?
**A.** 0.8

**Q.** And the “Resistance, Enzyme Assay” value (mutant HCV protease V36L)?
**A.** 2.2

**Q.** And the “Resistance, Replicon Assay” value [3]?
**A.** 6.3
